Measurements reported in PubChem BioAssay AID1224833 (University of Georgia, 2016)

- Assay: 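Human genes whose knock-down alters rotavirus replication in monkey cells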 (primary screen)
- Cells: monkey MA104 kidney cells
- Knock-down reagent: siRNA pool against human genes, 50 nM
- Time to read-out: 48 h knock-down before infection; read 24 h after infection
- Challenge: infection with rotavirus strain RV3 two days after transfection; infectious dose for this stage not given
- Detection: 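z-score of rotavirus antigen signal per well, from a fluorescent immunoassay, relative to non-targeting control wells on the same plate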
- Scale: z-score vs non-targeting control: higher = more rotavirus replication than with non-targeting control
- Hit rule: In these data the active calls have z-score vs non-targeting control at about -1 or lower, or at about 1 or higher
- Meaning of the calls: active = z-score beyond 1 either way; inactive = z-score within 1 of zero
In all, the deposit lists about 12,000 reagents; shown is a random part of them. About 5,600 of all reagents (46%) count as active. 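Active calls cover z-scores past 1 in both directions, so they include lowered as well as raised rotavirus replication.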 Unmarked entries are inactive.

| Gene | PubChem SID | z-score vs non-targeting control |
| --- | --- | --- |
| SMC6 | SID329580951 | -0.326 |
| MYPN | SID329581691 | -0.236 |
| ZNF236 | SID329575937 | 0.656 |
| PLA2G2A | SID329574844 | -1.58 (active) |
| PARP8 | SID329580945 | 1.21 (active) |
| SMARCA1 | SID329575390 | -0.556 |
| FGD5 | SID329583065 | 0.443 |
| ARL5B | SID329583570 | 0.232 |
| HLF | SID329573974 | 2.26 (active) |
| MORC4 | SID329580969 | 1.96 (active) |
| SKIC8 | SID329581226 | -0.217 |
| PURG | SID329578731 | 2.24 (active) |
| CPEB4 | SID329581207 | 1.18 (active) |
| RHOJ | SID329580223 | -1.06 (active) |
| CCDC102A | SID329582092 | -2.14 (active) |
| AXIN2 | SID329576056 | -0.493 |
| PLD6 | SID329583423 | -1.05 (active) |
| PARD6G | SID329581656 | -0.722 |
| PER1 | SID329574798 | -1.15 (active) |
| IFNGR2 | SID329574110 | -0.667 |
| MRPL22 | SID329578653 | -1.8 (active) |
| MDGA2 | SID329583196 | -0.528 |
| NATD1 | SID329583740 | -1.36 (active) |
| TMEM109 | SID329580826 | 0.959 |
| ZFP69 | SID329584056 | 0.757 |
| HSF2BP | SID329577522 | -0.197 |
| CYP2S1 | SID329578685 | 1.02 (active) |
| MRPS28 | SID329578606 | -0.572 |
| UBQLN1 | SID329578748 | -1.04 (active) |
| TBX4 | SID329576623 | 1.43 (active) |
| IFT70B | SID329583026 | 1.12 (active) |
| SP140 | SID329577622 | -1.18 (active) |
| TASL | SID329581183 | -0.825 |
| TMEM237 | SID329580744 | -1.21 (active) |
| EPHX4 | SID329583676 | -1.85 (active) |
| ARFIP1 | SID329578536 | 0.0932 |
| ZBTB14 | SID329575844 | -0.351 |
| DDX18 | SID329576338 | 0.51 |
| PCCA | SID329574758 | 0.981 |
| DBNDD2 | SID329579912 | -2.66 (active) |
| IFT56 | SID329581109 | 2.13 (active) |
| IGSF6 | SID329577063 | -0.269 |
| WARS1 | SID329575803 | -0.784 |
| CFAP68 | SID329580675 | -0.534 |
| CD59 | SID329573089 | 0.4 |
